Record: PubChem BioAssay AID1259414 (Drosophila RNAi Screening Center, 2018)

Screen: 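Fly genes that alter Wolbachia amount inside host cells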 (primary screen)
System: Drosophila JW18 cells infected with Wolbachia
Knock-down reagent: long dsRNA against Drosophila genes, 0.25 µg dsRNA per well of a 384-well plate
Duration: 5 days
Challenge: cells persistently infected with Wolbachia before knock-down; no added drug
Read-out: 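Automated imaging of bacterial rRNA staining divided by host cell count, reported as plate-normalised robust z-score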
Reading the numbers: Wolbachia per cell robust z: higher = more Wolbachia per host cell than the plate typical
Rule for the call: 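Hit when robust z is 1.5 or more, or -1.5 or less, in at least two of three replicates; excludes dsRNAs with several or no targets, genes not expressed in JW18 and well A1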
The screen tested about 24,000 reagents; this is a random part of those that have a named target and a result. Over the whole deposit, about 1,210 (5%) are marked active. 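Inactive calls also include excluded dsRNAs with several or no targets, genes unexpressed in JW18, and well A1, regardless of score.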 Reagents against one gene are numbered here. Names joined by + are all predicted targets of the reagent.

The opening 7 records as a preview:
| Target gene | dsRNA no. | Wolbachia per cell robust z, rep 1 | Wolbachia per cell robust z, rep 2 | Wolbachia per cell robust z, rep 3 | Call |
| --- | --- | --- | --- | --- | --- |
| CG34045 (GeneID 3885656) | 1 | -2.03 | -0.338 | -0.449 | inactive |
| Fitm (GeneID 38596) | 1 | 1.5 | 0.0477 | -0.497 | inactive |
| Fitm (GeneID 38596) | 2 | 1.13 | -0.85 | 0.348 | inactive |
| Cyp18a1 (GeneID 32858) | 1 | -0.314 | -0.595 | 0.125 | inactive |
| Cyp18a1 (GeneID 32858) | 2 | 0.487 | 1.07 | 0.295 | inactive |
| pita (GeneID 37730) | 1 | 0.431 | 0.327 | -0.0265 | inactive |
| pita (GeneID 37730) | 2 | 1.08 | -3.33 | -0.364 | inactive |

Results, from the first entry:
| Target gene | dsRNA no. | Wolbachia per cell robust z, rep 1 | Wolbachia per cell robust z, rep 2 | Wolbachia per cell robust z, rep 3 | Call |
| --- | --- | --- | --- | --- | --- |
| CG34045 (GeneID 3885656) | 1 | -2.03 | -0.338 | -0.449 | inactive |
| Fitm (GeneID 38596) | 1 | 1.5 | 0.0477 | -0.497 | inactive |
| Fitm (GeneID 38596) | 2 | 1.13 | -0.85 | 0.348 | inactive |
| Cyp18a1 (GeneID 32858) | 1 | -0.314 | -0.595 | 0.125 | inactive |
| Cyp18a1 (GeneID 32858) | 2 | 0.487 | 1.07 | 0.295 | inactive |
| pita (GeneID 37730) | 1 | 0.431 | 0.327 | -0.0265 | inactive |
| pita (GeneID 37730) | 2 | 1.08 | -3.33 | -0.364 | inactive |
| dob (GeneID 32436) | 1 | -0.549 | 0.613 | 0.904 | inactive |
| UGP (GeneID 39065) | 1 | 0.505 | -0.192 | 0.212 | inactive |
| CG3604 (GeneID 33593) | 1 | -0.562 | -4.47 | 0.549 | inactive |
| mt:ND1 (GeneID 19893558) | 1 | 0.746 | -1.85 | -0.682 | inactive |
| Hira (GeneID 31680) | 1 | 0.543 | 0.291 | 0.325 | inactive |
| Atg1 (GeneID 39454) | 1 | -1.11 | -0.915 | 0.045 | inactive |
| Atg1 (GeneID 39454) | 2 | -0.508 | 0.328 | -0.651 | inactive |
| CG8728 (GeneID 35748) | 1 | 0.321 | -0.276 | 0.316 | inactive |
| SoYb (GeneID 34331) | 1 | 0.434 | 0.776 | 0.516 | inactive |
| CG9922 (GeneID 41708) | 1 | -0.0409 | -0.852 | -0.0207 | inactive |
| CG9922 (GeneID 41708) | 2 | 0.671 | -5.56 | -0.342 | inactive |
| CG4554 (GeneID 37570) | 1 | -2.2 | 1.47 | 0.744 | inactive |
| CG4554 (GeneID 37570) | 2 | -0.339 | 0.483 | 0.63 | inactive |
| Vsx2 (GeneID 31469) | 1 | 0.513 | -3.2 | -0.846 | inactive |
| Vsx2 (GeneID 31469) | 2 | -0.809 | -0.00866 | 1.44 | inactive |
| Vsx2 (GeneID 31469) | 3 | -0.583 | -6.05 | 0.0785 | inactive |
| CG31454 (GeneID 318744) | 1 | -0.676 | 0.125 | 0.619 | inactive |
| CG31454 (GeneID 318744) | 2 | -1.17 | -4.36 | -1.13 | inactive |
| CG31454 (GeneID 318744) | 3 | -0.0573 | 0.603 | -0.843 | inactive |
| CG43328 + CG43327 | 1 | -1.49 | -0.701 | -0.351 | inactive |
| CG33272 (GeneID 2768958) | 1 | 1.19 | 0.713 | 0.9 | inactive |
| CG15347 (GeneID 31779) | 1 | 0.319 | 0.792 | 0.717 | inactive |
| CG8389 (GeneID 36764) | 1 | 0.572 | 1.23 | -1.32 | inactive |
| CG8389 (GeneID 36764) | 2 | -0.0231 | 0.403 | 1.28 | inactive |
| CG8389 (GeneID 36764) | 3 | -0.959 | 0.782 | -0.91 | inactive |
| ymp (GeneID 43088) | 1 | 0.296 | -0.803 | -2.74 | inactive |
| ymp (GeneID 43088) | 2 | -0.283 | 0.509 | 0.0722 | inactive |
| por (GeneID 32818) | 1 | 1.21 | 1.24 | -3.62 | inactive |
| por (GeneID 32818) | 2 | -0.00323 | 0.58 | 0.12 | inactive |
| hng1 (GeneID 37412) | 1 | -0.528 | -1.07 | 0.192 | inactive |
| CG5267 (GeneID 36875) | 1 | 0.496 | -0.00335 | -0.0705 | inactive |
| CG11703 (GeneID 42307) | 1 | -0.0522 | 0.548 | 0.0985 | inactive |
| CG11703 (GeneID 42307) | 2 | -9.31 | 0.162 | 0.448 | inactive |
| CG17059 (GeneID 50227) | 1 | 0.409 | -3.29 | -1.1 | inactive |
| lncRNA:CR43174 (GeneID 26067100) | 1 | 0.0814 | 0.398 | 0.278 | inactive |
| CG12929 (GeneID 35987) | 1 | -0.21 | -0.0507 | -0.805 | inactive |
| Mettl4 + CG14907 | 1 | -3.97 | -0.688 | 0.466 | inactive |
| Mettl4 + CG14907 | 2 | -0.523 | 0.715 | -1.13 | inactive |
| Mettl4 + CG14907 | 3 | 1.17 | 1.3 | 2.82 | inactive |
| Pex11ab (GeneID 36758) | 1 | -2.78 | -2.18 | -1.6 | active |
| CG17660 (GeneID 33347) | 1 | -0.595 | -3.65 | -0.298 | inactive |
| CG43295 (GeneID 12797916) | 1 | 1.16 | 0.776 | 0.798 | inactive |
| Cyp9f2 (GeneID 41520) | 1 | 0.626 | 0.887 | 0.86 | inactive |
| Fsn (GeneID 36460) | 1 | 0.402 | -2.03 | -1.08 | inactive |
| Fsn (GeneID 36460) | 2 | 0.216 | 0.331 | 0.491 | inactive |
| Srg2 (GeneID 39179) | 1 | 1.26 | 0.407 | 0.953 | inactive |
| Srg2 (GeneID 39179) | 2 | 0.581 | 0.653 | 0.325 | inactive |
| CR14798 (GeneID 31126) | 1 | -4.28 | 0.0744 | -0.297 | inactive |
| nito (GeneID 35756) | 1 | 0.252 | 1.59 | 0.694 | inactive |
| CG12539 (GeneID 32412) | 1 | 0.415 | -0.629 | -1.57 | inactive |
| CG12539 (GeneID 32412) | 2 | -0.238 | 1.5 | 0.782 | inactive |
| CSN3 (GeneID 40308) | 1 | 1.15 | 0.973 | 0.532 | inactive |
| CSN3 (GeneID 40308) | 2 | -0.907 | 2.69 | 0.906 | inactive |
| trn (GeneID 39491) | 1 | -0.202 | 0.73 | -0.192 | inactive |
| CG15483 (GeneID 34687) | 1 | -0.31 | -3.36 | -0.62 | inactive |
| Nepl17 (GeneID 43408) | 1 | -0.547 | 0.159 | -0.912 | inactive |
| CG32373 (GeneID 318000) | 1 | -3.61 | -0.193 | 0.438 | inactive |
| slmo + CG34179 | 1 | 1.1 | -6.92 | 1.25 | inactive |
| CG14966 (GeneID 38390) | 1 | -0.63 | 1.01 | 0.107 | inactive |
| CG14325 (GeneID 42123) | 1 | 1.3 | -4.3 | -0.149 | inactive |
| CG17300 (GeneID 39489) | 1 | 0.481 | -0.59 | 0.423 | inactive |
| CG17300 (GeneID 39489) | 2 | 0.333 | 1.11 | 0.313 | inactive |
